Each structure is given as a SMILES string.

The test system of the assay is SARS/COVID-19 nsp12 chimera-luc. The experiment in a line: Antiviral assay, SARS/COVID-19 nsp12 chimera-luc in Huh-7.

With `O=c1nc(NO)ccn1C1OC(CO)C(O)C1O` (stereo not shown) [EIDD-1931, 1-(3,4-dihydroxy-5-(hydroxymethyl)tetrahydrofuran-2-yl)-4-(hydroxyamino)pyrimidin-2-one], the EC50 – broadly, the concentration giving half of the maximal effect – came out at 70 nM.

The values are drawn from patent US20250064844A1 (Emory University, priority 2020, published 2025).
